Pooled drug test results. Numbers come from NIAID ChemDB, via PubChem.

Shared fields: growth or infection tests; agent: HIV-1

Blank or dashed fields: not listed here. ECn is the concentration giving n% inhibition of infection, replication or growth. a–b is a range or a potency band. Conditions beyond the fields shown may differ between rows.

compound | conditions | strain | cells | read by | mutations | measure | result
CC1CCCCN1CCCNCc1ccc(CNCCCN2CCCCC2C)cc1 |  |  | MT-4 | MTT |  | EC50 | 0.12 µM
C=CCN(C(=O)OCc1ccccc1)C1CCN(CC[C@H](CN(C)S(=O)(=O)c2ccccc2)c2ccccc2)CC1 |  | YU2 | PBMC | p24 |  | EC50 | <0.8 µM
CC#Cc1cn([C@@H]2O[C@H](COP(=O)(O)OCC)[C@@H](O)[C@@H]2O)c(=O)[nH]c1=O |  | HXB2 | HeLa | plaque count |  | EC50 | >50 µM
Cc1ccnc2c1NC(=O)c1cccnc1N2C1CC1 |  |  | MT-2 | syncytia |  | EC95 | 0.004–0.09 µM
Cc1cn([C@H]2C[C@H](N=[N+]=[N-])[C@@H](CO)O2)c(=O)[nH]c1=O |  | LAI | PBMC |  |  | EC50 | 0.004 µM
O=C(O)P(=O)(O)O |  | HXB2D | MT-2 | XTT |  | EC50 | 40 µM
CCN(CCO)CCCC(C)Nc1ccnc2cc(Cl)ccc12 |  | IIIB | CEM | RT activity |  | EC50 | ~100 µg/mL
OC[C@@H]1[C@@H](O)[C@H](O)[C@H]2[C@@H](O)CCN21 |  | GB8 | JM | syncytia |  | EC50 | 720 µM
CC(C)CN(C[C@@H](O)[C@H](Cc1ccccc1)NC(=O)O[C@H]1CCOC1)S(=O)(=O)c1ccc(N)cc1 |  | IIIB | CEM + CEM-SS |  |  | EC90 | 0.026 µM
CCCN(C(=O)OCc1ccc([N+](=O)[O-])cc1)C1CCN(CC[C@H](CN(C)S(=O)(=O)c2ccccc2)c2ccccc2)CC1 |  | YU2 | PBMC | p24 |  | EC50 | <0.1 µM
C[C@]12CC[C@H](OS(=O)(=O)O)CC1=CC[C@@H]1[C@@H]2CC[C@]2(C)C(=O)CC[C@@H]12 |  | LAV | CEM | RT activity |  | EC50 | 19.8 µM
c1cc(CN2CCCNCCNCCCNCC2)ccc1CN1CCCNCCNCCCNCC1 |  | SW38 CLADE C R5 | PBMC | p24 |  | EC50 | >0.5 µM
Cc1cn([C@H]2C[C@H](N=[N+]=[N-])[C@@H](CO)O2)c(=O)[nH]c1=O |  | ADP144 (RT-L74V) | MT-4 | MTT | RT-L74V | EC50 | 0.0001 µg/mL
c1cc(CNCCCN2CCOCC2)ccc1CCNCCCN1CCOCC1 |  |  | MT-4 | MTT |  | EC50 | 61.79 µM
CCOC(=O)[C@H](C)NP(=O)(OC[C@@H]1O[C@H](n2cc(C)c(=O)[nH]c2=O)C[C@H]1N=[N+]=[N-])OC[C@H]1O[C@@H](n2cc(C)c(=O)[nH]c2=O)C[C@@H]1N=[N+]=[N-] |  | LAI | CEM + CEM TK- | RT activity |  | EC50 | 89 µM
c1cc(CNCCN2CCCCC2)ccc1CNCCN1CCCCC1 |  |  | MT-4 | MTT |  | EC50 | >32.6 µM
Nc1ncnc2c1ncn2CCOCP(=O)(O)O |  | IIIB | MT-2 | XTT |  | EC50 | 10 µM
CC#Cc1cn([C@@H]2O[C@H](COP(=O)(NCCC)Oc3ccccc3)[C@@H](O)[C@@H]2O)c(=O)[nH]c1=O |  | HXB2 | HeLa | plaque count |  | EC50 | >50 µM
Cc1cn([C@H]2C[C@H](N=[N+]=[N-])[C@@H](CO)O2)c(=O)[nH]c1=O |  | IIIB | C8166 | p24 |  | EC50 | 0.04 µM
CC(=O)c1ccc(C)cc1NC(C(N)=O)c1c(Cl)cccc1Cl |  | ADP141 (RT D67N K70N T215F K219Q) | MT-4 | MTT | RT-D67N K70N T215F K219Q | EC50 | 0.02 µg/mL
CN1C(=O)CN=C(c2ccc(Cl)cc2)c2cc(Cl)ccc21 |  | SF162 | U1 |  |  | EC50 | 3 µM
C=CCOc1cc2c(c3oc(=O)cc(CCC)c13)[C@@H](O)[C@H](C)[C@@H](C)O2 |  |  | CEM + CEM-SS | XTT |  | EC50 | 4.74 µM
CCOCn1c([Se]c2cc(C)cc(C)c2)c(C(C)C)c(=O)[nH]c1=O |  | RF | CEM + CEM-SS | cytopathic effect / XTT |  | EC50 | 0.0047 µM
Nc1nc(NC2CC2)c2ncn([C@H]3C=C[C@@H](CO)O3)c2n1 |  | IIIB | MT-2 | cytopathic effect / MTT |  | EC50 | 11 µM
CCCN(C(=O)Nc1ccccc1)C1CCN(CCC(CN(C)S(=O)(=O)c2ccccc2)c2ccccc2)CC1 |  | YU2 | PBMC | p24 |  | EC95 | 6 µM
OC[C@@H]1[C@@H](O)[C@H](O)[C@@H]2[C@@H](O)CCN21 |  | GB8 | JM | syncytia |  | EC50 | 18 µM
CC(C)(C)NC(=O)[C@@H]1CN(Cc2cccnc2)CCN1C[C@@H](O)C[C@@H](Cc1ccccc1)C(=O)N[C@H]1c2ccccc2C[C@H]1O |  | IIIB | CEM + CEM-SS |  |  | EC90 | 0.027 µM
CCOCn1c([Se]c2cccc(C)c2)c(CC)c(=O)[nH]c1=S |  | RF | CEM + CEM-SS | cytopathic effect / XTT |  | EC50 | 0.02 µM
O=c1[nH]cnc2c1ncn2[C@H]1CC[C@@H](CO)O1 |  | ADP144 (RT-L74V) | MT-4 | MTT | RT-L74V | EC50 | 0.6 µg/mL
OC[C@H]1[C@@H](O)[C@H](O)[C@H]2[C@@H](O)CCN21 |  | GB8 | JM | syncytia |  | EC50 | 70 µM
CC(C)=CCN1Cc2cc(Cl)cc3[nH]c(=S)n(c23)C[C@@H]1C |  | IIIB/LAI | MT-4 | p24 |  | EC90 | 0.05–0.1 µg/mL
COc1ccc2cc([C@H](C)C(=O)O)ccc2c1 |  | LAV | MT-4 |  |  | EC50 | >100 µg/mL
Nc1ncnc2c1ncn2[C@H]1C=C[C@@H](OCP(=O)(O)O)O1 |  | HXB2D | MT-2 | XTT |  | EC50 | 3.6 µM
c1cc(CNCCCCN2CCCCC2)ccc1CNCCCCN1CCCCC1 |  |  | MT-4 | MTT |  | EC50 | 0.72 µM
COC(=O)[C@@H]1CCCN1P(=O)(OC[C@H]1O[C@@H](n2cc(C)c(=O)[nH]c2=O)CC1N=[N+]=[N-])Oc1ccccc1 |  | IIIB | MT-4 | MTT |  | EC50 | 0.992 µM
O=C1Nc2ccc(Cl)cc2C(c2ccccc2Cl)=NC1O |  | LAV | MT-4 |  |  | EC50 | >1 µg/mL
CCc1c([Se]c2cccc(C)c2)n(COCCO)c(=S)[nH]c1=O |  | RF | CEM + CEM-SS | cytopathic effect / XTT |  | EC50 | 0.11 µM
CCN(c1ncccc1NC(C)(C)C)C1CCN(C(=O)c2cc3cc(NS(C)(=O)=O)ccc3[nH]2)CC1 |  | IIIB |  | p24 | RT-T139I | EC50 | 0.95 ± 0.07 µM
Cc1cn([C@H]2C[C@H](F)[C@@H](CO)O2)c(=O)[nH]c1=S |  | IIIB | MT-4 | cytopathic effect |  | EC50 | 1 µM
CCOC(CN1CCN(CC(C)C(=O)c2ccccc2)CC1)c1ccccc1 |  | LAV | MT-4 |  |  | EC50 | >1 µg/mL
CCOCn1c([Se]c2cc(C)cc(C)c2)c(C(C)C)c(=O)[nH]c1=S |  | RF | CEM + CEM-SS | cytopathic effect / XTT |  | EC50 | 0.027 µM
NS(=O)(=O)c1cc(C(=O)O)c(NCc2ccco2)cc1Cl |  | LAV | MT-4 |  |  | EC50 | >100 µg/mL
Cc1cn([C@H]2C[C@H](N=[N+]=[N-])[C@@H](CO)O2)c(=O)[nH]c1=O |  | LAI | PBMC |  |  | EC50 | 0.015 µM
Cc1cn([C@H]2C[C@H](N=[N+]=[N-])[C@@H](CO)O2)c(=O)[nH]c1=O |  | LAI | PBMC |  |  | EC50 | >100 µM
Cc1cn([C@H]2C[C@H](N=[N+]=[N-])[C@@H](CO)O2)c(=O)[nH]c1=O |  | RF | C8166 | cytopathic effect |  | EC50 | <1 µg/mL
CC(C)c1c([Se]c2ccccc2)n(COCc2ccccc2)c(=S)[nH]c1=O |  | RF | CEM + CEM-SS | cytopathic effect / XTT |  | EC50 | 0.046 µM
CCCc1cc(=O)oc2c3c(c4c(c12)OC(C)(C)C=C4)O[C@@H](C)[C@H](C)[C@@H]3O |  | Nevirapine-resistant (RT Y181C) | CEM + CEM-SS | XTT | RT-Y181C | EC50 | <0.01 µM
CCCCNP(=O)(OC[C@@H]1O[C@H](n2cc(C)c(=O)[nH]c2=O)C[C@H]1N=[N+]=[N-])OC[C@H]1O[C@@H](n2cc(C)c(=O)[nH]c2=O)C[C@@H]1N=[N+]=[N-] |  | LAI | CEM + CEM-SS | RT activity |  | EC50 | 0.34 µM
Cc1cn([C@H]2C[C@H](N=[N+]=[N-])[C@@H](CO)O2)c(=O)[nH]c1=O |  | 52534-2 NRTI resistant recombinant | PBMC | RT activity | RT-M41L T69ins L74V M184V L210W T215Y | EC50 | 0.0548 µM
Cc1cn([C@H]2C[C@H](N=[N+]=[N-])[C@@H](CO)O2)c(=O)[nH]c1=O |  | UG070 | TZM-bl | luciferase |  | EC50 | 0.01 µM
CC(C)=CCN1Cc2cc(Cl)cc3[nH]c(=S)n(c23)C[C@@H]1C |  | NL4-3 | MT-4 | cytopathic effect / MTT |  | EC50 | 0.0003 µg/mL
CN(C(=O)Cn1cccn1)C1CCCn2c1nc(C(=O)NCc1ccc(F)cc1)c(O)c2=O | 50% human serum | IIIB | MT-4 | p24 / ELISA |  | EC95 | >1 µM
CC#Cc1cn([C@@H]2O[C@H](COP(=O)(O)Oc3ccccc3)[C@@H](O)[C@@H]2O)c(=O)[nH]c1=O |  | HXB2 | HeLa | plaque count |  | EC50 | >50 µM
Cc1ccc(C)n1-c1cccc(O)c1 |  | IIIB | PBMC | p24 |  | EC50 | >80 µg/mL
CCc1c(C(=O)c2cc(C)cc(C)c2)n(CC2CC=CC2)c(=O)[nH]c1=O |  | NL4-3 | CEM + CEM-SS | cytopathic effect / XTT | RT-V179D | EC50 | 0.001 µM
c1cc(CNCCCN2CCOCC2)ccc1CNCCCN1CCCC1 |  |  | MT-4 | MTT |  | EC50 | 4.271 µM
CC(C)(C)NC(=O)[C@@H]1CC2CCCCC2CN1C[C@@H](O)[C@H](Cc1ccccc1)NC(=O)[C@H](CC(N)=O)NC(=O)c1ccc2ccccc2n1 |  | NL4-3 | MT-4 |  |  | EC50 | 0.017 µM
CN(C)C(=O)C(=O)N(C)C1CCn2c1nc(C(=O)NCc1ccc(F)cc1)c(O)c2=O | 10% FBS | IIIB | MT-4 | p24 / ELISA |  | EC95 | >1 µM
CCCc1cc(=O)oc2c3c(c4c(c12)OC(C)(C)C=C4)O[C@H](C)[C@@H](C)[C@@H]3O |  | CLADE C | PBMC | RT activity |  | EC50 | 0.02 µM
COC(=O)N(CC1CCCCC1)C1CCN(CCC(CN(C)S(=O)(=O)c2ccccc2)c2ccccc2)CC1 |  | YU2 | PBMC | p24 |  | EC50 | <25 µM
CC(C)c1c([Se]c2ccccc2)n(COCCO)c(=S)[nH]c1=O |  | RF | CEM + CEM-SS | cytopathic effect / XTT |  | EC50 | 0.093 µM
COC(=O)[C@H](C)NP(=O)(OC[C@@H]1C=C[C@H](n2cc(C)c(=O)[nH]c2=O)O1)Oc1ccc(Br)cc1 |  | G780-1 NRTI resistant | PBMC | p24 | RT-M41L D67N K70R T215F K219Q | EC50 | 0.035 µM
C=CCN(C(=O)NCc1ccc([N+](=O)[O-])cc1)C1CCN(CC[C@H](CN(C)S(=O)(=O)c2ccccc2)c2ccccc2)CC1 |  | YU2 | PBMC | p24 |  | EC50 | <0.25 µM
CCOCn1c([Se]c2cc(F)cc(F)c2)c(C(C)C)c(=O)[nH]c1=O |  | RF | CEM + CEM-SS | cytopathic effect / XTT |  | EC50 | 0.019 µM
CC(C)CN(C[C@@H](O)[C@H](Cc1ccccc1)NC(=O)O[C@H]1CO[C@H]2OCC[C@H]21)S(=O)(=O)c1ccc(C(N)=O)cc1 |  | LAI | MT-2 |  |  | EC50 | 0.093 µM
CC#Cc1cn([C@@H]2O[C@H](COP(=O)(O)Oc3cccc(Cl)c3)[C@@H](O)[C@@H]2O)c(=O)[nH]c1=O |  | HXB2 | HeLa | plaque count |  | EC50 | >5 µM
Nc1ncnc2c([C@H]3CC[C@](CO)(C(F)(F)F)C3)c[nH]c12 |  | LAI | PBMC |  |  | EC50 | 52.5 µM
Nc1ccn([C@H]2CC[C@@H](CO)O2)c(=O)n1 |  | RF | CEM + CEM-SS | cytopathic effect / XTT |  | EC50 | 0.19 µM

Repeating the first 9 entries:

compound | conditions | strain | cells | read by | mutations | measure | result
CC1CCCCN1CCCNCc1ccc(CNCCCN2CCCCC2C)cc1 |  |  | MT-4 | MTT |  | EC50 | 0.12 µM
C=CCN(C(=O)OCc1ccccc1)C1CCN(CC[C@H](CN(C)S(=O)(=O)c2ccccc2)c2ccccc2)CC1 |  | YU2 | PBMC | p24 |  | EC50 | <0.8 µM
CC#Cc1cn([C@@H]2O[C@H](COP(=O)(O)OCC)[C@@H](O)[C@@H]2O)c(=O)[nH]c1=O |  | HXB2 | HeLa | plaque count |  | EC50 | >50 µM
Cc1ccnc2c1NC(=O)c1cccnc1N2C1CC1 |  |  | MT-2 | syncytia |  | EC95 | 0.004–0.09 µM
Cc1cn([C@H]2C[C@H](N=[N+]=[N-])[C@@H](CO)O2)c(=O)[nH]c1=O |  | LAI | PBMC |  |  | EC50 | 0.004 µM
O=C(O)P(=O)(O)O |  | HXB2D | MT-2 | XTT |  | EC50 | 40 µM
CCN(CCO)CCCC(C)Nc1ccnc2cc(Cl)ccc12 |  | IIIB | CEM | RT activity |  | EC50 | ~100 µg/mL
OC[C@@H]1[C@@H](O)[C@H](O)[C@H]2[C@@H](O)CCN21 |  | GB8 | JM | syncytia |  | EC50 | 720 µM
CC(C)CN(C[C@@H](O)[C@H](Cc1ccccc1)NC(=O)O[C@H]1CCOC1)S(=O)(=O)c1ccc(N)cc1 |  | IIIB | CEM + CEM-SS |  |  | EC90 | 0.026 µM